This test concerns the target Acetylcholinesterase (Homo sapiens) (UniProt P22303). The test is described as follows: Reactivation of VX-inhibited human recombinant AChE assessed as reactivation rate constant incubated for 1 to 10 mins by spectrophotometry based Ellman's assay. In general terms: DTNB colorimetry detects thiols as they appear.

Sequences of proteins named here, by UniProt entry; tags and fusion partners are left off. A change or cut given only in a name is not applied to a line headed by its entry.
UniProt P22303: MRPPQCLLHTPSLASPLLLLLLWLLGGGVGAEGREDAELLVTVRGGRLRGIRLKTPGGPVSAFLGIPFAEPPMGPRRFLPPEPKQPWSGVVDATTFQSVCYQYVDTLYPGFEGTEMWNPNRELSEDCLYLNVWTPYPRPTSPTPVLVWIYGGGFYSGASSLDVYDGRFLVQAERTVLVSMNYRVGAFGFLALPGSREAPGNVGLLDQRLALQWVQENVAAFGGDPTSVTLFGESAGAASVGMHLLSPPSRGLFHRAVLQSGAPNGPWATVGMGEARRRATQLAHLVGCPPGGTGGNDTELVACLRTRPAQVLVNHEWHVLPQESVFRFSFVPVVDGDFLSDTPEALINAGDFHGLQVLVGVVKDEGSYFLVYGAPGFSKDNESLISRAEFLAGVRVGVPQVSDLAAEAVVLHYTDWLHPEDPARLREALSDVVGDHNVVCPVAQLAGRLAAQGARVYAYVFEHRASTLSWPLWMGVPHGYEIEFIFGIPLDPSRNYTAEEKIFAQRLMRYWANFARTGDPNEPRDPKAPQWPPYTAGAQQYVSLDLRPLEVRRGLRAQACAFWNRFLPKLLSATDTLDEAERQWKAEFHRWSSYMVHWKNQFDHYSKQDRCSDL

The structures appear in SMILES notation.

As for `O/N=C/c1nc(CCCCNc2c3c(nc4ccc(Cl)cc24)CCCC3)ccc1O`, the K came to 0.29 min⁻¹.
The result for `O/N=C/c1ccccn1` reads 0.1 min⁻¹.

The values above are taken from ChEMBL document CHEMBL4196153, “Structure-Based Optimization of Nonquaternary Reactivators of Acetylcholinesterase Inhibited by Organophosphorus Nerve Agents” (2018).
